Compound potency records, mixed from different reports. Data source: NIAID ChemDB in PubChem.

Shared fields: growth or infection tests; species: HIV-1; endpoint: EC90

Neighbouring rows are from separate reports. Blank or dashed fields: not listed here. ECn: concentration that inhibits the pathogen or its effect by n%.

smiles,strain,mutations,cell line,method,result
CN(C)c1ncnc2c1ncn2[C@H]1CC[C@@H](CO)O1,RF,-,C8166,cytopathic effect / MTT / p24,20 µM
O=C1Nc2ccc(F)c(F)c2[C@@](C#CC2CC2)(C(F)(F)F)N1,-,RT-K103N Y181C,-,-,~0.015 µM
O=C(Nc1cscc1S(=O)(=O)c1ccccc1)C(=O)C(=O)N(CC1CCCC1)S(=O)(=O)c1ccccc1,IIIB,-,CEM,p24,1 µM
CCCCCCNc1ncnc2c1ncn2[C@H]1CC[C@@H](CO)O1,GB8,-,JM,p24,>200 µM
COC(=O)[C@H](C)NP(=O)(OC[C@@H]1OC[C@H](n2cc(C)c(=O)[nH]c2=O)O1)Oc1cccc2ccccc12,LAI,RT-M184V,PBMC,RT activity,0.64 µM
COc1ccnc2[nH]cc(C(=O)C(=O)N3CCN(C(=O)c4ccccc4)C[C@H]3C)c12,6535,-,TZM-bl,luciferase,0.005 µM
Cc1cn([C@H]2CO[C@@H](COP(=O)(N[C@@H](C)C(=O)OCc3ccccc3)Oc3cccc4ccccc34)O2)c(=O)[nH]c1=O,LAI,RT-M184V,PBMC,RT activity,11.6 µM
COc1ccnc2[nH]cc(C(=O)C(=O)N3C4CC3CN(C(=O)c3ccccc3)C4)c12,ZM214,-,TZM-bl,luciferase,>250 µM
Cc1ccc(C)n1-c1ccc(C(=O)O)c(O)c1,93BR020 X4R5 CLADE F,-,PBMC/5.25M7,luciferase / cell fusion,29.42 µM
COC(=O)C(C)(C)NP(=O)(OC[C@@H]1OC[C@H](n2cc(C)c(=O)[nH]c2=O)O1)Oc1cccc2ccccc12,LAI,RT-M184V,PBMC,RT activity,2.6 µM
COc1ccc(S(=O)(=O)N(CC2CCCC2)C[C@@H](O)CN(CCc2ccccc2)C(=O)OC(C)(C)C)cc1,IIIB,-,CEM,p24,1 µM
O=C1Nc2ccc(Cl)cc2[C@@](/C=C/C2CC2)(C(F)(F)F)N1,-,RT-Y188L,-,-,~0.08 µM
Nc1nc(=O)n([C@H]2C=C[C@@H](CO)O2)cc1F,XM-T69SSS,RT-T69SSS L210W T215Y,PBMC,p24,6.6 µM
COC(=O)[C@H](Cc1ccccc1)NP(=O)(OC[C@@H]1OC[C@H](n2cc(C)c(=O)[nH]c2=O)O1)Oc1ccccc1,LAI,RT-M184V,PBMC,RT activity,8.4 µM
Cc1cc(C)cc(S(=O)(=O)c2c(C(=O)NCCO)[nH]c3ccc(Cl)cc23)c1,EFV-resistant (RT K103R V179D P225H),RT-K103R V179D P225H,C8166,p24,0.1 µM
Cc1cn([C@H]2CO[C@@H](CO[P@@]3(=O)OCC[C@@H](c4ccccc4)O3)O2)c(=O)[nH]c1=O,LAI,RT-M184V,PBMC,RT activity,10.1 µM
COc1ccc(S(=O)(=O)N(CC(C)C)C[C@@H](O)CCNc2cc(C(C)(C)C)sc2C(N)=O)cc1,IIIB,-,CEM,p24,1 µM
CCCCCCCC/C=C\CCCCCCCCOP(=O)(N[C@@H](C)C(=O)OC)OC[C@@H]1OC[C@H](n2cc(C)c(=O)[nH]c2=O)O1,LAI,RT-M184V,PBMC,RT activity,23.7 µM
Nc1nc(NC2CC2)c2ncn([C@H]3C=C[C@@H](CO)C3)c2n1,NL4-3 WT,-,MT-4,p24,2.3 µM
CCCCCCCCCCCCCCCCOCCCOP(=O)(NCC(=O)OC)OC[C@@H]1OC[C@H](n2cc(C)c(=O)[nH]c2=O)O1,LAI,RT-M184V,PBMC,RT activity,80.5 µM
CSC[C@H]1O[C@@H](n2cnc3c(N)ncnc32)[C@H](O)[C@H]1O,-,-,C8166,syncytia,>190 µM

For reference, 2 entries again:

O=C1Nc2ccc(F)c(F)c2[C@@](C#CC2CC2)(C(F)(F)F)N1 ; mutations: RT-K103N Y181C ; result: ~0.015 µM
CN(C)c1ncnc2c1ncn2[C@H]1CC[C@@H](CO)O1 ; strain: RF ; cell line: C8166 ; method: cytopathic effect / MTT / p24 ; result: 20 µM